# Source: PubChem BioAssay AID1259311 (ICCB-Longwood Screening Facility, Harvard Medical School, 2017)
# The entries are a selection whose mix differs from that of the whole data set. The source made the active and inactive calls. No stated cut-off is given here; in the data, active means inhibition above about 85%; inactive means the rest.
# Assay: growth inhibition of S. aureus RN4220, primary screen, OD600 (AID 1259311);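 further: plate controls were untreated cells for no effect and reference antibiotic for full effect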
# Conditions: OD600, 16 h, hits give high values
row,SMILES,inhibition
1,COc1cc(C(=O)NCC2(N3CCOCC3)CCCCC2)cc(OC)c1C,inactive: 5.28%
2,O=C(NCC1(N2CCOCC2)CCCCC1)c1cc(Br)ccc1Cl,inactive: 2.49%
3,COc1ccc(C(=O)NCC2(N3CCOCC3)CCCCC2)cc1OC,inactive: 5.62%
4,CCOC(=O)N1CCC(Nc2ccc(C)cc2)CC1,inactive: 4.64%
5,O=C(OC1CN2CCC1CC2)C1c2ccccc2C=Cc2ccccc21 (stereo not given),inactive: -0.297%
6,CCc1cc(C(=O)NCC2(N3CCCCC3)CCCCC2)sc1C,inactive: 1.66%
7,N#Cc1ccc(C(=O)NCC2(N3CCCCC3)CCCCC2)cc1,inactive: -2.97%
8,CC(C)(C)OC(=O)N1CCC(N(C(=O)c2ccccc2)c2ccc(Cl)cc2)CC1,inactive: -3.92%
9,CN(C)C1(CNC(=O)c2cccc(C#N)c2)CCCCC1,inactive: 1.93%
10,CCCN1CCC(Nc2cc(OC)cc(OC)c2)CC1,inactive: 3.51%
11,c1ccc(CN2CCC(Nc3ccccc3)CC2)cc1,inactive: 3.27%
12,CC(=O)N(c1ccccc1)C1CCNCC1,inactive: 3.77%
13,COc1cc(OC)cc(C(=O)NCC2(N3CCCCC3)CCCCC2)c1,inactive: 3.5%
14,Fc1ccccc1NC1CCN(Cc2ccccc2)CC1,inactive: 2.41%
15,Cc1ccc(C(=O)NCC2(N3CCCCC3)CCCCC2)o1,inactive: 2.29%
16,Cc1ccc(NC2(C#N)CCN(Cc3ccccc3)CC2)cc1,inactive: 1.86%
17,CCN1CCC(Nc2cccc(F)c2)CC1,inactive: 4.4%
18,Cc1ccccc1NC1(C#N)CCN(Cc2ccccc2)CC1,inactive: 3.07%
19,Cn1c(=O)[nH]cc(N(CCCl)CCCl)c1=O,inactive: 5.19%
20,CN(C)c1ccc(C(=O)NCC2(N3CCCCC3)CCCCC2)cc1,inactive: 5.7%
21,O=C(NCC1(N2CCCCC2)CCCCC1)c1ccco1,inactive: 2.63%
22,CN1CCC(Nc2ccc(F)c(Cl)c2)CC1,inactive: -2.97%
23,CCOc1ncccc1C(=O)NCC1(N2CCOCC2)CCCCC1,inactive: 0.967%
24,O=C(O)C1(Nc2ccccc2)CCN(Cc2ccccc2)CC1,inactive: 2.09%

row,SMILES,inhibition
1,CC(C)(C)OC(=O)N1CCC(Nc2ccccc2)CC1,inactive: -0.675%
2,CCCOc1ccc(C(=O)NCC2(N(C)C)CCCCC2)cc1,inactive: 4.8%
3,COc1cc(OC)cc(C(=O)NCC2(N3CCOCC3)CCCCC2)c1,inactive: 3.06%
4,COc1cccc(C(=O)N(c2cc(C)cc(C)c2)C2CCN(C(=O)OC(C)(C)C)CC2)c1,inactive: 2.03%
5,CN1CCC(Nc2ccc(Cl)cc2)CC1,inactive: 2.94%
6,COc1ccc(C(=O)NCC2(N3CCCCC3)CCCCC2)c(OC)c1OC,inactive: 1.13%
7,CC(C)(C)OC(=O)N1CCC(N(C(=O)c2ccccc2)c2ccc(F)cc2)CC1,inactive: 6.37%
8,COc1ccc(C(=O)NCC2(N3CCCCC3)CCCCC2)cc1,inactive: 0.846%
9,O=C(NCC1(N2CCCCC2)CCCCC1)c1cccs1,inactive: 3.42%
10,O=C(NCC1(N2CCCCC2)CCCCC1)c1ccc(=O)[nH]c1,inactive: 1.68%
11,Cc1cccc(NC2(C#N)CCN(Cc3ccccc3)CC2)c1,inactive: 2.89%
12,CSc1ccccc1C(=O)NCC1(N2CCCCC2)CCCCC1,inactive: 3.53%
13,Cc1cc(C)cc(N(C(=O)c2ccccc2)C2CCN(C(=O)OC(C)(C)C)CC2)c1,inactive: 2.75%
14,O=C(NCC1(N2CCCCC2)CCCCC1)c1ccc(Cl)nc1,inactive: 1.36%
15,O=C(NCC1(N2CCOCC2)CCCCC1)c1cc2ccccc2o1,inactive: 6.86%
16,COc1ccc(Cl)cc1C(=O)NCC1(N2CCOCC2)CCCCC1,inactive: -1.18%
17,O=C(OC1CN2CCC1CC2)C1c2ccccc2Oc2ccccc21 (stereo not given),inactive: 8.25%
18,O=C(NCC1(N2CCCCC2)CCCCC1)c1ccc(Cl)s1,inactive: 4.43%
19,N#CC1(Nc2ccccc2)CCN(Cc2ccccc2)CC1,inactive: 1.58%
20,CCOC(=O)N1CCC(Nc2ccc(OC)cc2)CC1,inactive: -0.489%
21,CCOc1ccc(C)cc1CN(CCCl)CCCl,inactive: -0.146%
22,COc1ccc(NC2CCN(CCc3ccccc3)CC2)c(OC)c1,inactive: 3.95%
23,CCOC(=O)N1CCC(Nc2ccc(F)cc2)CC1,inactive: 4.81%
24,O=C(NCC1(N2CCCCC2)CCCCC1)c1ccc(F)cc1,inactive: 8.48%

row,SMILES,inhibition
1,O=P1(N(CCCl)CCCl)SCCCS1,inactive: 1.32%
2,CCCCOc1ccc(C(=O)NCC2(N3CCOCC3)CCCCC2)cc1,inactive: 4.43%
3,COc1cc(C(=O)NCC2(N(C)C)CCCCC2)ccc1OC(F)F,inactive: -1.71%
4,CCOC(=O)N1CCC(Nc2cccc(C)c2)CC1,inactive: -1.55%
5,O=C(NCC1(N2CCCCC2)CCCCC1)c1ccc(OC(F)F)cc1,inactive: 2.03%
6,N#CC1(Nc2ccccc2)CCN(CCc2ccccc2)CC1,inactive: 4.76%
7,CCN1CCC(Nc2ccc(Cl)cc2)CC1,inactive: 1.43%
8,O=C(NCC1(N2CCCCC2)CCCCC1)c1cccc([N+](=O)[O-])c1,inactive: 2.65%
9,CSc1ccc(C(=O)NCC2(N3CCOCC3)CCCCC2)cc1,inactive: 1.98%
10,O=C(NCC1(N2CCCCC2)CCCCC1)c1cccc(C(F)(F)F)c1,inactive: 1.45%
11,COc1cc(C(=O)NCC2(N3CCCCC3)CCCCC2)ccc1OC(F)F,inactive: 4.78%
12,O=C(NCC1(N2CCOCC2)CCCCC1)c1cc(=O)[nH]c2ccccc12,inactive: 4.03%
13,CN1CCN(CCOC(=O)C(O)(c2ccccc2)c2ccccc2)CC1,inactive: 3.97%
14,COc1ccc(NC2CCN(C(=O)OC(C)(C)C)CC2)cc1,inactive: 2.54%
15,CC(C)c1ccc(C(=O)NCC2(N3CCOCC3)CCCCC2)cc1,inactive: 3.86%
16,CC(C)c1ccc(NC2CCN(C(=O)OC(C)(C)C)CC2)cc1,inactive: 6.45%
17,CN(C)c1cccc(C(=O)NCC2(N3CCCCC3)CCCCC2)c1,inactive: -0.56%
18,COc1ccc(CN(CCCl)CCCl)cc1Cl,inactive: 3.42%
19,O=C(NCC1(N2CCOCC2)CCCCC1)c1cc(F)c(F)cc1Cl,inactive: 4.61%
20,COc1cc(OC)c(C(=O)NCC2(N(C)C)CCCCC2)cc1OC,inactive: 0.887%
21,O=C(NCC1(N2CCCCC2)CCCCC1)c1cncc(Br)c1,inactive: 0.55%
22,CCCOc1ccc(C(=O)NCC2(N(C)C)CCCCC2)cc1OC,inactive: 1.61%
